Key:
Settings in all cases: both partners purified
FC27-MSP2_(14-30) [1] = biological target: T1, FC27-MSP2_(14-30) (Plasmodium falciparum, FC27 allele, strain); experiment: ITC; Microcal ITC-200; MSP2 or peptide titrated into 6D8 scFv or 6D8 IgG
T1 construct: source: synthetic peptide
T1 chain: NAYNMSIRRSMANEGSN

3D7-MSP2_(14-30) [2] = biological target: T2, 3D7-MSP2_(14-30) (Plasmodium falciparum, 3D7, strain); experiment: as above
T2 construct: source: synthetic peptide
T2 chain: NAYNMSIRRSMAESKPS

[3] = biological target: T3, full-length recombinant FC27 MSP2 (Plasmodium falciparum, FC27 allele); experiment: as above
T3 chain: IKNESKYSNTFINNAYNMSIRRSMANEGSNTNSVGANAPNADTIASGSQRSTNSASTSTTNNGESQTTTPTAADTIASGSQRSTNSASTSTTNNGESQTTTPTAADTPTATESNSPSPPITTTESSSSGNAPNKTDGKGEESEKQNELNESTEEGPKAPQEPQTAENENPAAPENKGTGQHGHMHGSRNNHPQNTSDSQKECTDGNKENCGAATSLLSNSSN

[4] = biological target: full-length recombinant 3D7 MSP2 (Plasmodium falciparum 3D7, UniProt P50498); experiment: as above
[5] = biological target: T4, C-terminally His-tagged FC27 MSP2 (Plasmodium falciparum, FC27 allele); experiment: SPR; MSP2 immobilised by conventional amide coupling to the chip in the absence of lipid; antibody flowed over
T4 construct: not shown: His6, C-terminal, kept
T4 chain: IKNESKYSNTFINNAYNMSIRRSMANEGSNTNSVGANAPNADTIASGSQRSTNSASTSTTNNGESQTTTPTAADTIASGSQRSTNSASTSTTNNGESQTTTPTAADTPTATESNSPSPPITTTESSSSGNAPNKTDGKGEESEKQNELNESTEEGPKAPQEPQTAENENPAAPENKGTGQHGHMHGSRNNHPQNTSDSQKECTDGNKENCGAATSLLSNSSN

FC27-MSP2_(14-30) [6] = biological target: T1, FC27-MSP2_(14-30); experiment: crystal structure; 6D8 Fv co-crystallised with synthetic peptides, hanging drop; molecular replacement; 1.2 to 1.7 A
3D7-MSP2_(14-30) [7] = biological target: T2, 3D7-MSP2_(14-30); experiment: as above

Measured: binding result

B1: mouse monoclonal antibody 6D8 (antibody, V domains shown)
VH: QVQLQQSGDELVKPGASVKLSCTVSGFNIKDDFIHWMKQRPEQGLEWIGRIDPANGYTKYAPKFQDKATMTADTSSNTAYLQLSSLASEDAAVYYCATYGVAYWGQGTLVTVSA
VL: DIVLTQSPASLAVSLGQRATISCKASQSVDHDGDSYMNWFQQKPGQSPKLLIYAASNLESGIPARFSGSGSGTDFTLNIHPVEEEDAATYYCQQTNEDPYTFGGGTKLEIK
notes: also called mAb 6D8; 6D8 IgG
not listed: FC27-MSP2_(14-30) [6] | 3D7-MSP2_(14-30) [7]
binds: all other assays above

B2: 6D8 Fv (other, mouse)
VH: QVQLQQSGDELVKPGASVKLSCTVSGFNIKDDFIHWMKQRPEQGLEWIGRIDPANGYTKYAPKFQDKATMTADTSSNTAYLQLSSLASEDAAVYYCATYGVAYWGQGTLVTVSA
VL: DIVLTQSPASLAVSLGQRATISCKASQSVDHDGDSYMNWFQQKPGQSPKLLIYAASNLESGIPARFSGSGSGTDFTLNIHPVEEEDAATYYCQQTNEDPYTFGGGTKLEIK
notes: also called Fv region of mAb 6D8
binds: FC27-MSP2_(14-30) [6] | 3D7-MSP2_(14-30) [7]

B3: 6D8 scFv (scFv, V domains shown)
VH: QVQLQQSGDELVKPGASVKLSCTVSGFNIKDDFIHWMKQRPEQGLEWIGRIDPANGYTKYAPKFQDKATMTADTSSNTAYLQLSSLASEDAAVYYCATYGVAYWGQGTLVTVSA
VL: DIVLTQSPASLAVSLGQRATISCKASQSVDHDGDSYMNWFQQKPGQSPKLLIYAASNLESGIPARFSGSGSGTDFTLNIHPVEEEDAATYYCQQTNEDPYTFGGGTKLEIK
binds: FC27-MSP2_(14-30) [1] | 3D7-MSP2_(14-30) [2] | [3] | [4]
